Values from PubChem BioAssay AID624099 (ICCB-Longwood, 2012).
The deposit covers about 21,000 reagents; below is an unselected part. 497 of all reagents (2.4%) count as active. 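Higher z means weaker E2 silencing; only reporter increases were scored, and knock-downs that hurt cell survival may mask genuine repressor factors.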 Entries without a mark were called inactive. The numbers tell different reagents against one gene apart.

Purpose: 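Host factors E2 relies on to silence an HPV18 LCR reporter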 (primary screen)
Cell system: human C33A cervical carcinoma cells (HPV-negative) stably expressing BPV1 E2 and an HPV18 LCR luciferase reporter
Knock-down reagent: siRNA pool against human genes, 40 nM
Timing: 72 h
Read-out: 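Per-well luciferase luminescence, z-scored on each plate against the plate mean and SD with control wells left out, then averaged across three replicate plates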
Scale: mean z-score and z-score: higher = stronger reporter signal, weaker E2 silencing
Active means: 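Hit if mean z-score reaches 2 and two or more of three replicate z-scores also reach 2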

PTPRB | mean z-score: 0.62; z-score, replicate A: 0.65; z-score, replicate B: 0.83; z-score, replicate C: 0.37
DHFR | mean z-score: -0.15; z-score, replicate A: 0.06; z-score, replicate B: 0; z-score, replicate C: -0.52
RERE | mean z-score: 1.55; z-score, replicate A: 1.32; z-score, replicate B: 1.55; z-score, replicate C: 1.79
LOC107984784 | mean z-score: -0.26; z-score, replicate A: -0.04; z-score, replicate B: -0.37; z-score, replicate C: -0.39
OR6B1 #1 | mean z-score: 0.38; z-score, replicate A: 0.3; z-score, replicate B: 0.61; z-score, replicate C: 0.22
OR6B1 #2 | mean z-score: 0.37; z-score, replicate A: 0.23; z-score, replicate B: 0.41; z-score, replicate C: 0.47
CLTRN | mean z-score: 2.4 (active); z-score, replicate A: 2.54; z-score, replicate B: 2.12; z-score, replicate C: 2.55
CDX4 | mean z-score: -0.51; z-score, replicate A: -0.93; z-score, replicate B: -0.24; z-score, replicate C: -0.36
LOC149709 (retired record) | mean z-score: -1.34; z-score, replicate A: -1.37; z-score, replicate B: -1.23; z-score, replicate C: -1.41
TADA2A | mean z-score: 1.3; z-score, replicate A: 1.28; z-score, replicate B: 1.27; z-score, replicate C: 1.34
SUCNR1 | mean z-score: -1.26; z-score, replicate A: -1.06; z-score, replicate B: -1.47; z-score, replicate C: -1.24
PSG5 | mean z-score: 2.06 (active); z-score, replicate A: 2.07; z-score, replicate B: 1.97; z-score, replicate C: 2.15
UMOD | mean z-score: 0.49; z-score, replicate A: 0.47; z-score, replicate B: 0.58; z-score, replicate C: 0.43
LOC391510 (retired record) | mean z-score: 1.51; z-score, replicate A: 1.37; z-score, replicate B: 1.77; z-score, replicate C: 1.4
LRRC37A6P | mean z-score: 1.54; z-score, replicate A: 1.05; z-score, replicate B: 1.76; z-score, replicate C: 1.79
SSTR5-AS1 | mean z-score: -0.38; z-score, replicate A: -0.23; z-score, replicate B: -0.86; z-score, replicate C: -0.07
IPO8 | mean z-score: 0.52; z-score, replicate A: 0.51; z-score, replicate B: 0.46; z-score, replicate C: 0.58
LINC00314 | mean z-score: 0.14; z-score, replicate A: 0.03; z-score, replicate B: 0.22; z-score, replicate C: 0.18
FANCB | mean z-score: 1.1; z-score, replicate A: 1.21; z-score, replicate B: 1.3; z-score, replicate C: 0.78
TRMO | mean z-score: -0.55; z-score, replicate A: -0.26; z-score, replicate B: -0.64; z-score, replicate C: -0.74
LOC388137 (retired record) | mean z-score: -0.66; z-score, replicate A: -0.75; z-score, replicate B: -0.48; z-score, replicate C: -0.74

Called active, of those listed so far:
CLTRN | mean z-score: 2.4 (active); z-score, replicate A: 2.54; z-score, replicate B: 2.12; z-score, replicate C: 2.55
PSG5 | mean z-score: 2.06 (active); z-score, replicate A: 2.07; z-score, replicate B: 1.97; z-score, replicate C: 2.15
